Laboratory results: PubChem BioAssay AID1259414 (Drosophila RNAi Screening Center, 2018)
The screen tested about 24,000 reagents; below is an unselected part of those that have a named target and a result. Of all reagents, about 1,210 (5%) were called active. 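Inactive calls also include excluded dsRNAs with several or no targets, genes unexpressed in JW18, and well A1, regardless of score.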 Unmarked entries are inactive. The numbers tell different reagents against one gene apart. Names joined by + are all predicted targets of the reagent.

- Purpose: 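Genome-wide screen for host control of endosymbiont load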 (primary screen)
- System: Drosophila JW18 cells infected with Wolbachia
- Knock-down reagent: long dsRNA against Drosophila genes, 0.25 µg dsRNA per well of a 384-well plate
- Duration: 5 days
- Conditions: cells persistently infected with Wolbachia before knock-down; no added drug
- Measurement: 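Imaged fluorescence in situ signal for Wolbachia 23S rRNA per DAPI-counted host cell, given as a robust z-score within each plate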
- Reading the numbers: Wolbachia per cell robust z: higher = more Wolbachia per host cell than the plate typical
- Active means: 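Hit when robust z is 1.5 or more, or -1.5 or less, in at least two of three replicates; excludes dsRNAs with several or no targets, genes not expressed in JW18 and well A1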

no.	Gene	dsRNA no.	Wolbachia per cell robust z, rep 1	Wolbachia per cell robust z, rep 2	Wolbachia per cell robust z, rep 3
1	CG12546	1	-0.602	-0.0992	-0.223
2	Osi5	1	-0.155	-0.732	1.14
3	CG10300	1	-0.244	-2.34	-7.35
4	Ald2	1	0.192	0.508	0.623
5	Ald2	2	1.35	0.714	0.0259
6	140up	1	-3.28 (active)	-2.64	-0.308
7	140up	2	-1.15	0.0981	1.01
8	Sos	1	-2.94	1.28	1.38
9	Sos	2	1.58 (active)	1.47	3.86
10	Sos	3	-2.18	-0.524	-6.51
11	CG32706 + CG6999	1	-1.48	-7.24	-0.826
12	CG32706 + CG6999	2	1.09	-0.919	0.0854
13	NimB5 + He	1	-0.57	0.675	-0.106
14	Pfdn2	1	0.997	0.257	-0.472
15	CG44247 + Atf-2	1	0.851	-7.48	-0.657
16	CG44247 + Atf-2	2	-1.33	0.00291	-0.761
17	CG14005	1	0.842	0.913	0.542
18	l(2)34Fd	1	1.39	0.058	-6.35
19	CG13324	1	1.54	-1.69	0.43
20	Sfp33A2	1	-0.106	-0.693	-0.801
21	CG16890	1	1.76	-0.196	1.04
22	CG16890	2	0.335	0.586	0.402
23	ytr	1	-0.698	-0.501	0.329
24	ytr	2	0.0399	-2.25	-0.553
25	ytr	3	0.198	0.504	-0.551
26	CG11357	1	0.161	0.46	0.868
27	OdsH	1	0.844	1.15	1.16
28	CG13330 + Vmat	1	0.637	-0.246	-0.043
29	Tektin-C	1	0.889	-0.548	2.69
30	Tektin-C	2	1.21	0.408	0.0688
31	NimB5	1	0.194	0.417	0.499
32	Ugt35B1	1	0.315	0.326	0.0769
33	Ugt35B1	2	-0.683	0.927	0.668
34	Ugt35B1	3	-0.0305	0.245	1.18
35	CG10845	1	0.305	0.177	-0.586
36	EbpII	1	-1.7	-1.83	-0.611
37	EbpII	2	0.166	0.245	0.512
38	EbpII	3	-1.13	0.141	-0.415
39	CG11566 (retired record) + stg1	1	-0.243	0.307	0.459
40	sosie	1	-0.557	-0.82	-0.585
41	sosie	2	1.06	0.857	1.19
42	sosie	3	0.507	-0.837	-0.282
43	smid	1	-0.475	0.397	0.802
44	smid	2	0.0414	-0.691	-1.49
45	CG14780	1	-0.511	0.606	0.148
46	retinin	1	-0.922	0.0303	3.04
47	retinin	2	-0.262	-1.25	0.696

Called active (from the list above):
Gene	dsRNA no.	Wolbachia per cell robust z, rep 1	Wolbachia per cell robust z, rep 2	Wolbachia per cell robust z, rep 3
140up	1	-3.28 (active)	-2.64	-0.308
Sos	2	1.58 (active)	1.47	3.86
